Test results: article PMC11701102, “Structural insights into the interplay between microtubule polymerases, γ-tubulin complexes and their receptors” (Nature Communications, 2025)

Target: γ-tubulin small complex (γ-TuSC) from C. albicans: His-Spc97, His-Spc98, γ-tubulin (Tub4) (C. albicans) (UniProt Q59PZ2)
Assay: MST
Conditions: domain or fragment

“GST-CM1^231-268,3R (GST-Spc72^231-268 L243R/I247R/L254R) (from UniProt Q5AGV5 231-268)” showed a Kd of 418 nM.
